Assay: general procedure: solution-phase peptide synthesis; HATU/DIPEA; TPTU/DIPEA; pentafluorophenyl esters
Conditions: for conjugation yield: conjugation step
[1] = coupling step, TFA salt (B1, B2, B3, B6)
[2] = late stage modification step, TFA salt (B1, B2, B3, B6)
[3] = coupling step, trifluoroacetate salt

Row | Substance | step yield [1] | also measured
1 | 1,2-dimethyl-D-prolyl-N-[(1R,3R)-1-(4-{[(2R,4S)-4-carboxy-1-phenylpentan-2-yl]carbamoyl}-1,3-thiazol-2-yl)-1-hydroxy-4-methylpentan-3-yl]-N-methyl-L-isoleucinamide | 81% | 
2 | 1,2-dimethyl-D-prolyl-N-[(1R,3R)-1-(acetylamino)-1-(4-{[(2R,4S)-4-carboxy-1-phenylpentan-2-yl]carbamoyl}-1,3-thiazol-2-yl)-4-methylpentan-3-yl]-N-methyl-L-isoleucinamide | 46% | 
3 | 1,2-dimethyl-D-prolyl-N-[(1R,3R)-1-(acetylamino)-1-(4-{[(2R,4S)-5-ethoxy-4-methyl-5-oxo-1-phenylpentan-2-yl]carbamoyl}-1,3-thiazol-2-yl)-4-methylpentan-3-yl]-N-methyl-L-isoleucinamide | 49% | 
4 | 1,2-dimethyl-D-prolyl-N-[(1R,3R)-1-(acetylamino)-1-(4-{[(2R,4S)-5-methoxy-4-methyl-5-oxo-1-phenylpentan-2-yl]carbamoyl}-1,3-thiazol-2-yl)-4-methylpentan-3-yl]-N-methyl-L-isoleucinamide | 60% | 
5 | 1,2-dimethyl-D-prolyl-N-[(1R,3R)-1-(acetyloxy)-1-(4-{[(2R,4S)-1-(4-aminophenyl)-4-carboxypentan-2-yl]carbamoyl}-1,3-thiazol-2-yl)-4-methylpentan-3-yl]-N-methyl-L-isoleucinamide | 80% | 
6 | 1,2-dimethyl-D-prolyl-N-[(1R,3R)-1-(acetyloxy)-1-(4-{[(2R,4S)-1-(4-{[N-(tert-butoxycarbonyl)-L-valyl-L-alanyl]amino}phenyl)-4-carboxypentan-2-yl]carbamoyl}-1,3-thiazol-2-yl)-4-methylpentan-3-yl]-N-methyl-L-isoleucinamide | 57% | 
7 | 1,2-dimethyl-D-prolyl-N-[(1R,3R)-1-(acetyloxy)-1-(4-{[(2R,4S)-4-carboxy-1-phenylpentan-2-yl]carbamoyl}-1,3-thiazol-2-yl)-4-methylpentan-3-yl]-N-methyl-L-isoleucinamide |  | step yield [2]: 90%
8 | 1,2-dimethyl-D-prolyl-N-[(1R,3R)-1-(acetyloxy)-1-(4-{[(2R,4S)-5-ethoxy-4-methyl-5-oxo-1-phenylpentan-2-yl]carbamoyl}-1,3-thiazol-2-yl)-4-methylpentan-3-yl]-N-methyl-L-isoleucinamide | 7.7% | 
9 | 1,2-dimethyl-D-prolyl-N-[(1R,3R)-1-(acetyloxy)-1-(4-{[(2R,4S)-5-hydrazinyl-4-methyl-5-oxo-1-phenylpentan-2-yl]carbamoyl}-1,3-thiazol-2-yl)-4-methylpentan-3-yl]-N-methyl-L-isoleucinamide |  | step yield [2]: 83%
10 | 1,2-dimethyl-D-prolyl-N-[(1R,3R)-1-(acetyloxy)-1-(4-{[(2R,4S)-5-methoxy-4-methyl-5-oxo-1-phenylpentan-2-yl]carbamoyl}-1,3-thiazol-2-yl)-4-methylpentan-3-yl]-N-methyl-L-isoleucinamide | 22% | 
11 | 1,2-dimethyl-D-prolyl-N-[(1R,3R)-1-(acetyloxy)-1-(4-{[(2R,4S)-5-{(2Z)-2-[1-(4-{[5-(2,5-dioxo-2,5-dihydro-1H-pyrrol-1-yl)pentyl]oxy}phenyl)ethylidene]hydrazinyl}-4-methyl-5-oxo-1-phenylpentan-2-yl]carbamoyl}-1,3-thiazol-2-yl)-4-methylpentan-3-yl]-N-methyl-L-isoleucinamide |  | conjugation yield (TFA salt (B1, B2, B3, B6)): 20%
12 | 1,2-dimethyl-D-prolyl-N-{(1R,3R)-1-(acetyloxy)-1-[4-({(2R,4S)-4-carboxy-1-[4-({N-[6-(2,5-dioxo-2,5-dihydro-1H-pyrrol-1-yl)hexanoyl]glycyl}amino)phenyl]pentan-2-yl}carbamoyl)-1,3-thiazol-2-yl]-4-methyl pentan-3-yl}-N-methyl-L-isoleucinamide |  | conjugation yield (TFA salt (B1, B2, B3, B6)): 26%
13 | 1,2-dimethyl-D-prolyl-N-{(1R,3R)-1-[4-({(2R,4S)-4-carboxy-1-[4-(glycylamino)phenyl]pentan-2-yl}carbamoyl)-1,3-thiazol-2-yl]-1-[(ethylcarbamoyl)oxy]-4-methylpentan-3-yl}-N-methyl-L-isoleucinamide |  | step yield [2]: 62%
14 | 1,2-dimethyl-D-prolyl-N-{(1R,3R)-1-[4-({(2R,4S)-4-carboxy-1-[4-({N-[6-(2,5-dioxo-2,5-dihydro-1H-pyrrol-1-yl)hexanoyl]glycyl}amino)phenyl]pentan-2-yl}carbamoyl)-1,3-thiazol-2-yl]-1-[(ethylcarbamoyl)oxy]-4-methylpentan-3-yl}-N-methyl-L-isoleuc |  | conjugation yield (TFA salt (B1, B2, B3, B6)): 52%
15 | 1,2-dimethyl-D-prolyl-N-{(1R,3R)-1-[4-({(2R,4S)-4-carboxy-1-[4-({N-[6-(2,5-dioxo-2,5-dihydro-1H-pyrrol-1-yl)hexanoyl]glycyl}amino)phenyl]pentan-2-yl}carbamoyl)-1,3-thiazol-2-yl]-1-hydroxy-4-methylpentan-3-yl}-N-methyl-L-isoleucinamide |  | conjugation yield (TFA salt (B1, B2, B3, B6)): 26%
16 | 1,2-dimethyl-L-prolyl-N-[(1R,3R)-1-(acetyloxy)-1-(4-{[(2R,4S)-5-methoxy-4-methyl-5-oxo-1-phenylpentan-2-yl]carbamoyl}-1,3-thiazol-2-yl)-4-methylpentan-3-yl]-N-methyl-L-isoleucinamide |  | step yield [3]: 30%

Row | Substance | step yield [1] | also measured
17 | 2-methyl-D-prolyl-N-[(1R,3R)-1-(acetyloxy)-1-(4-{[(2R,4S)-5-methoxy-4-methyl-5-oxo-1-phenylpentan-2-yl]carbamoyl}-1,3-thiazol-2-yl)-4-methylpentan-3-yl]-N-methyl-L-isoleucinamide |  | step yield (coupling step, TFA salt): 34%
18 | 2-methylalanyl-N-[(1R,3R)-1-(acetyloxy)-1-(4-{[(2R,4S)-5-methoxy-4-methyl-5-oxo-1-phenylpentan-2-yl]carbamoyl}-1,3-thiazol-2-yl)-4-methylpentan-3-yl]-N-methyl-L-isoleucinamide | 31% | 
19 | 3-{2-[(2-{(1R,3R)-1-(acetyloxy)-4-methyl-3-[methyl(N-{[(2R)-1-methylpiperidin-2-yl]carbonyl}-L-isoleucyl)amino]pentyl}-1,3-thiazol-4-yl)carbonyl]-1-benzylhydrazinyl}-2-methylpropanoic Acid | 12% | 
20 | (1R,3R)-1-(4-{[(2S,4R)-1-(4-aminophenyl)-4-(diethoxyphosphoryl)pentan-2-yl]carbamoyl}-1,3-thiazol-2-yl)-4-methyl-3-[methyl(N-{[(2R)-1-methylpiperidin-2-yl]carbonyl}-L-isoleucyl)amino]pentyl Acetate | 39% | 
21 | (1R,3R)-1-(4-{[(2S,4S)-1-(4-aminophenyl)-4-(diethoxyphosphoryl)pentan-2-yl]carbamoyl}-1,3-thiazol-2-yl)-4-methyl-3-[methyl(N-{[(2R)-1-methylpiperidin-2-yl]carbonyl}-L-isoleucyl)amino]pentyl Acetate | 30% | 
22 | N,N,-2-trimethylalanyl-N-[(1R,3R)-1-(acetyloxy)-1-(4-{[(2R,4S)-5-methoxy-4-methyl-5-oxo-1-phenylpentan-2-yl]carbamoyl}-1,3-thiazol-2-yl)-4-methylpentan-3-yl]-N-methyl-L-isoleucinamide | 58% | 
23 | N-(tert-butoxycarbonyl)-N-methyl-D-valyl-N-[(1R,3R)-1-(acetyloxy)-1-(4-{[(2R,4S)-4-carboxy-1-phenylpentan-2-yl]carbamoyl}-1,3-thiazol-2-yl)-4-methylpentan-3-yl]-N-methyl-L-isoleucinamide |  | step yield [2]: 100%
24 | N-[(1R,3R)-1-(acetyloxy)-4-methyl-1-(4-{[(2S)-1-phenyl-4-phosphonopentan-2-yl]carbamoyl}-1,3-thiazol-2-yl)pentan-3-yl]-N-methyl-N˜2˜-{[(2R)-1-methylpiperidin-2-yl]carbonyl}-L-isoleucinamide |  | step yield (coupling step, TFA salt): 6.1%
25 | N-methyl-D-valyl-N-[(1R,3R)-1-(acetyloxy)-1-(4-{[(2R,4S)-4-carboxy-1-phenylpentan-2-yl]carbamoyl}-1,3-thiazol-2-yl)-4-methylpentan-3-yl]-N-methyl-L-isoleucinamide |  | step yield [2]: 72%
26 | ethyl (2S,4R)-4-{[(2-{(1R,3R)-1-(acetyloxy)-4-methyl-3-[methyl(N-{[(2R)-1-methylpiperidin-2-yl]carbonyl}-L-isoleucyl)amino]pentyl}-1,3-thiazol-4-yl)carbonyl]amino}-2-methyl-5-{4-[(pyridin-2-yldisulfanyl)methyl]phenyl}pentanoate | 30% | 
27 | methyl (2S,4R)-4-[({2-[(1R,3R)-1-(acetyloxy)-4-methyl-3-(methyl{N-[(2-methyl-2-azabicyclo[2.1.1]hex-1-yl)carbonyl]-L-isoleucyl}amino)pentyl]-1,3-thiazol-4-yl}carbonyl)amino]-2-methyl-5-phenylpentanoate | 67% | 
28 | methyl (2S,4R)-4-[({2-[(1R,3R)-1-(acetyloxy)-4-methyl-3-(methyl{N-[(2-methyl-2-azabicyclo[3.1.1]hept-1-yl)carbonyl]-L-isoleucyl}amino)pentyl]-1,3-thiazol-4-yl}carbonyl)amino]-2-methyl-5-phenylpentanoate | 65% | 
29 | methyl (2S,4R)-4-[({2-[(1R,3R)-1-(acetyloxy)-4-methyl-3-(methyl{N-[(9-methyl-9-azabicyclo[3.3.1]non-1-yl)carbonyl]-L-isoleucyl}amino)pentyl]-1,3-thiazol-4-yl}carbonyl)amino]-2-methyl-5-phenylpentanoate | 65% | 
30 | methyl (2S,4R)-4-[({2-[(1R,3R)-1-(acetyloxy)-4-methyl-3-{methyl[(2S,3S)-3-methyl-2-{[(7-methyl-7-azabicyclo[2.2.1]hept-1-yl)carbonyl]amino}pentanoyl]amino}pentyl]-1,3-thiazol-4-yl}carbonyl)amino]-2-methyl-5-phenylpentanoate | 60% | 
31 | methyl (2S,4R)-4-{[(2-{(1R,3R)-1-(acetyloxy)-3-[(N-{[1-(dimethylamino)cyclopentyl]carbonyl}-L-isoleucyl)(methyl)amino]-4-methylpentyl}-1,3-thiazol-4-yl)carbonyl]amino}-2-methyl-5-phenylpentanoate |  | step yield [3]: 76%
